The data set concerns yabZαE3L (yaba-like disease virus). Description: CD B-to-Z transition. Particulars: recombinant protein.

For at least one entry, the source does not settle the construct or the ends of the probe. At least one verdict rests on a figure or table, not on a statement of the authors.

Consider “CGCGCGCGCGCG (double strand) [ds-(dCdG)6]”, for which the binding result was “binds”.

The values are drawn from paper PMC4027156.
